This note sets out measurements from patent publication US8304410B2, “Pyrrole compounds as inhibitors of mycobacteria, synthesis thereof and intermediates thereto” (priority 2007, dated 2012).

Each structure is given as a SMILES string. A value given as a limit tells only on which side of the number the result lay.

The test system of the series is Vero cells. Conditions: CC50 Vero / MIC (considering M. tuberculosis H37Rv).
`NNC(=O)c1ccncc1` [Isoniazid, INH, Isoniazid, reference compound]: the “Protection Index (PI) CC50/MIC” value is given as 128. As to `[H]/N=C(/N)N[C@H]1[C@H](O)[C@@H](O)[C@H](O[C@@H]2O[C@@H](C)[C@](O)(C=O)[C@H]2O[C@@H]2O[C@@H](CO)[C@H](O)[C@@H](O)[C@@H]2NC)[C@@H](N/C(N)=N\[H])[C@@H]1O` [Streptomycin, SM, Streptomycin, reference compound], the “Protection Index (PI) CC50/MIC” value turned out to be 128. On to `CSc1ccc(-c2cc(CN3CCSCC3)c(C)n2-c2ccc(F)cc2)cc1` [Compound 3a, N-(4-fluorophenyl)-2-methyl-3-thiomorpholinomethyl-5-(4-methylsulfanylphenyl)pyrrole], for which the “Protection Index (PI) CC50/MIC” value is above 1024. For `CSc1ccc(-c2cc(CN3CCOCC3)c(C)n2-c2ccc(F)cc2)cc1` [Compound 3h], the “Protection Index (PI) CC50/MIC” value turned out to be 177.52. On to `Cc1c(CN2CCN(C)CC2)cc(-c2ccc(Cl)cc2)n1-c1ccc(Cl)cc1` [BM 212, 1-{[1,5-bis(4-chlorophenyl)-2-methyl-1H-pyrrol-3-yl]methyl}-4-methylpiperazine], for which the “Protection Index (PI) CC50/MIC” value is recorded as 5.7.
